# Source: PubChem BioAssay AID1259414 (Drosophila RNAi Screening Center, 2018)
# Assay: 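Fly genes that alter Wolbachia amount inside host cells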 (primary screen)
# System: Drosophila JW18 cells infected with Wolbachia
# Knock-down reagent: long dsRNA against Drosophila genes, 0.25 µg dsRNA per well of a 384-well plate
# Time to read-out: 5 days
# Conditions: cells persistently infected with Wolbachia before knock-down; no added drug
# Measured: 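Automated imaging of bacterial rRNA staining divided by host cell count, reported as plate-normalised robust z-score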
# Direction: Wolbachia per cell robust z: higher = more Wolbachia per host cell than the plate typical
# Active means: 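Hit when robust z is 1.5 or more, or -1.5 or less, in at least two of three replicates; excludes dsRNAs with several or no targets, genes not expressed in JW18 and well A1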
# In all, the deposit lists about 24,000 reagents; shown is a random part of those with a known target gene and a result. Of all reagents, about 1,210 (5%) are marked active. 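Inactive calls also include excluded dsRNAs with several or no targets, genes unexpressed in JW18, and well A1, regardless of score.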 Names joined by + are all predicted targets of the reagent. Reagent sequences are not shown.
target,DRSC id,"Wolbachia per cell robust z, rep 1","Wolbachia per cell robust z, rep 2","Wolbachia per cell robust z, rep 3",Call
betaGlu,DRSC15419,1.37,-0.452,-0.714,inactive
betaGlu,DRSC24889,-0.882,-1.34,-2.07,inactive
betaGlu,DRSC39080,0.178,1.46,-1.5,inactive
CG31121,DRSC15361,-2.99,-1.78,0.0257,inactive
CG31121,DRSC15363,0.966,0.175,0.631,inactive
l(1)G0196 + lncRNA:CR43493,DRSC20628,-0.237,-0.177,0.817,inactive
CG12831,DRSC06179,-1.11,-0.835,0.578,inactive
Drat,DRSC06600,0.645,-1.55,-1.28,inactive
Dlip2,DRSC12346,1.31,0.777,1.21,inactive
otk2,DRSC07303,0.0432,-0.0457,0.201,inactive
GstD11,DRSC15251,-4.13,0.826,-1.76,inactive
GstD11,DRSC26490,-0.268,-1.13,-0.136,inactive
CG2861,DRSC18229,-3.21,0.566,1.39,inactive
CG8519,DRSC10985,-0.435,-0.755,0.737,inactive
CG8519,DRSC26203,-2.47,-0.503,1.33,inactive
CG33912,DRSC37815,0.638,1.09,0.277,inactive
mah,DRSC14645,-0.0695,0.652,-0.649,inactive
mah,DRSC28300,-0.0187,0.29,0.526,inactive
CG15515,DRSC15054,0.876,0.532,0.114,inactive
PH4alphaPV,DRSC22400,-0.0057,0.38,0.978,inactive
PH4alphaPV,DRSC28020,0.365,-0.0602,0.0898,inactive
ais,DRSC10523,0.414,-1.28,0.701,inactive
ais,DRSC25460,0.532,0.25,0.371,inactive
CG34435,DRSC18086,0.795,-1.47,-0.667,inactive
CG12920,DRSC06234,0.105,0.625,-1.54,inactive
CG13243,DRSC01920,0.627,1.44,0.775,inactive
CG15747,DRSC19713,0.384,0.91,-0.274,inactive
CG15747,DRSC28586,-0.561,-0.376,-1.04,inactive
RpS25,DRSC16837,0.566,2.13,1.95,active
RpS25,DRSC29990,2.29,1.77,2.79,active
CG46339,DRSC14136,1.34,0.565,-0.558,inactive
CG46339,DRSC24047,0.754,-0.0551,0.749,inactive
LysB,DRSC08673,0.339,-0.0244,-0.488,inactive
lncRNA:CR40629,DRSC38772,0.156,0.223,1.98,inactive
CG4707,DRSC04483,0.535,-1.72,1,inactive
Phae2,DRSC02555,-0.253,0.988,-0.808,inactive
TwdlQ,DRSC23107,-1.68,-4.46,-3.31,inactive
TwdlQ,DRSC27737,1.46,0.215,0.97,inactive
CG14820,DRSC10191,1.08,1.02,0.407,inactive
CG34005,DRSC38865,0.365,-0.346,-0.134,inactive
Ns2,DRSC06993,-1.79,-1.37,0.411,inactive
Ns2,DRSC29008,0.272,-0.0558,1.17,inactive
Cpr60D,DRSC04492,0.588,1.1,0.494,inactive
bumpel,DRSC16100,0.159,0.618,-0.721,inactive
nAChRalpha6,DRSC01096,-1.57,-1.44,-2.88,inactive
nAChRalpha6,DRSC02738,-2.09,0.764,-1.22,inactive
HBS1,DRSC08544,0.325,0.678,0.445,inactive
HBS1,DRSC28426,-1.44,-0.793,-1.23,inactive
CG10646,DRSC09764,1.11,0.99,-0.657,inactive
Teh3,DRSC08537,0.678,-3.61,0.0411,inactive
Teh3,DRSC29472,0.405,0.272,-1.13,inactive
eIF3d2,DRSC15651,1.09,-1.01,-0.876,inactive
Paip2,DRSC14504,-0.307,-0.283,0.197,inactive
CG2608,DRSC02709,0.735,-6.04,-0.0852,inactive
CG14105,DRSC10107,-1.12,0.0542,-1.3,inactive
CG11768 + CG34135,DRSC38826,0.903,0.98,-0.677,inactive
CG43667 + CG43668 + CG43666,DRSC03829,-0.309,-0.693,-0.413,inactive
CG3198,DRSC18292,0.655,0.962,1.36,inactive
CG3198,DRSC24615,-0.105,1.04,1.2,inactive
CG3198,DRSC38993,2.42,1.57,1.03,active
DCTN5-p25,DRSC03525,-1.63,-0.204,1.25,inactive
DCTN5-p25,DRSC26867,-0.996,-0.283,0.229,inactive
Tsp42Eb + CG30160,DRSC04961,-0.892,-7.7,-1.39,inactive
Lsd-1,DRSC14236,-0.16,-0.212,-0.488,inactive
CG4597,DRSC10432,1.6,0.597,-0.206,inactive
CG31296,DRSC13092,0.241,0.602,-5.9,inactive
CG31446,DRSC13111,0.044,0.0952,0.312,inactive
SrpRbeta,DRSC21668,-1.57,1.06,-0.464,inactive
SrpRbeta,DRSC27853,-0.245,-1.26,0.00605,inactive

Only “Wolbachia per cell robust z, rep 1” (5 entries from above):
ais [DRSC25460]: 0.532
CG34435 [DRSC18086]: 0.795
CG12920 [DRSC06234]: 0.105
CG13243 [DRSC01920]: 0.627
CG15747 [DRSC19713]: 0.384
